Data taken from PMC7114128 (Antiviral Research, 2009).

System: HepG2 cells

Isoeugenol was tested. Which CC50 did it give?
The CC50 was 3.9 ± 0.343 mM.
